Pooled drug test results. Numbers come from NIAID ChemDB, via PubChem.

Common to all: growth or infection tests; organism: Hepatitis C virus; cell line: Huh7; measure: EC50

ECn is the concentration giving n% inhibition of infection, replication or growth.

smiles | strain | method | conditions | value
CCOC(=O)C1(NP(=O)(OC[C@H]2O[C@@H](c3cnc4c(=O)[nH]c(N)nn34)[C@](C)(O)[C@@H]2O)Oc2cccc3ccccc23)CCC1 |  | luciferase / reporter gene |  | >50 µM
CCCCCCCCCCCC(=O)OC[C@@]1(N=[N+]=[N-])O[C@@H](n2ccc(N)nc2=O)[C@@H](O)[C@@H]1O |  | luciferase |  | 0.619 µM
O=C(NC1(C(=O)Nc2ccc3[nH]c(C(=O)O)cc3c2)CCCC1)c1ccc2c(c1)nc(-c1ccoc1)n2C1CCCCC1 |  |  |  | 5–50 µM
CNC(=O)c1c(-c2ccc(F)cc2)oc2cc(NS(C)(=O)=O)c(F)cc12 |  | replicon |  | <10 µM
Cc1cn(C2CP(=O)(OC(C)C)[C@@H](COCc3ccccc3)O2)c(=O)[nH]c1=O | ZS11 (gt 1b) | luciferase / replicon |  | >10 µM
C[C@@]1(O)[C@H](O)[C@@H](CO)O[C@H]1n1cnc2c(NN)ncnc21 |  | replicon |  | <25 µM
C[C@@]1(O)[C@H](O)[C@@H](CO)O[C@H]1c1ccc2c(=O)[nH]c(N)nn12 |  | luciferase / reporter gene |  | >100 µM
CCNc1cc2oc(-c3ccc(F)cc3)c(C(=O)NC)c2c(Cl)c1O |  | replicon |  | >100 µM
Nc1nc(C2CC2)c2nc(-c3ccc(F)cc3)ccc2n1 |  | replicon |  | <0.3 µM
COc1ccc(-c2nc(NC(=O)[C@H](C)c3ccc(Cl)cc3)[nH]c2C)cc1S(=O)(=O)CCO | 1b | luciferase |  | 0.83 µM
CNC(=O)c1c(-c2ccc(F)cc2)oc2cc(N3CCOCC3)c(OC(F)F)cc12 |  | replicon |  | <1 µM
CCOc1ccccc1Nc1ncnc2c1ncn2[C@@H]1O[C@H](CO)[C@@H](O)[C@@]1(C)O |  | replicon |  | 25–100 µM
COc1cccc(CC(=O)N/N=C/c2ccccc2OS(=O)(=O)c2ccc(N3CCOCC3)nc2)c1 |  | replicon |  | 5–50 µM
CCC[C@H](NC(=O)[C@@H]1[C@H]2CCC[C@H]2CN1C(=O)[C@@H](NC(=O)[C@@H](NC(=O)c1cnccn1)C1CCCCC1)C(C)(C)C)C(=O)C(=O)N[C@@H](C)Cc1ccccc1 |  | replicon |  | 0.11 µM
Cc1cccc(Nc2ncnc3c2ncn3[C@@H]2O[C@H](CO)[C@@H](O)[C@@]2(C)O)c1 |  | replicon |  | >100 µM
CCOc1nc(N)nc2ccc(-c3cccc(NS(=O)(=O)CC)c3)nc12 |  | replicon |  | <0.3 µM
Nc1nc(CCC2OCCCO2)c2nc(-c3ccc(F)cc3)ccc2n1 |  | replicon |  | 0.3–1 µM
Nc1ncnc2c1c(-c1ccc(-c3cccc(-c4ccccn4)n3)cc1)cn2[C@H]1C[C@H](O)[C@@H](CO)O1 | 1b | replicon | genotype 1b | 16 µM
CS(=O)(=O)Nc1cccc(-c2ccc3nc(N)nc(O[C@@H]4CCOC4)c3n2)c1 |  | replicon |  | <0.3 µM
CCOC(=O)[C@H](C)NP(=O)(OC[C@H]1O[C@@H](c2cnc3c(=O)[nH]c(N)nn23)[C@](C)(O)[C@@H]1O)Oc1cccc2ccccc12 |  | luciferase / reporter gene |  | >50 µM
C=C[C@H]1C[C@@]1(NC(=O)c1ccc2c(c1)nc(-c1ccoc1)n2C1CCCCC1)C(=O)Nc1ccc(/C=C/C(=O)O)cc1 |  |  |  | ≤5 µM
CCOc1nc(N)nc2ccc(-c3ccc(Nc4nccs4)cc3)nc12 |  | replicon |  | 0.3–1 µM
COC(=O)N[C@H](C(=O)N1CCC[C@H]1c1ncc(-c2ccc3c(c2)Oc2ccc(-c4cnc([C@@H]5CCCN5C(=O)[C@@H](NC(=O)OC)C(C)C)[nH]4)cc2C3(C)C)[nH]1)C(C)C | GT2a | luciferase / replicon |  | 0.000058 µM
C[C@@]1(O)[C@H](O)[C@@H](CO)O[C@H]1n1cnc2c(N(N)CCO)ncnc21 |  | replicon |  | <25 µM
O=C(Cc1ccccc1)N/N=C/c1ccccc1OS(=O)(=O)c1ccc(F)cc1F |  | replicon |  | >50 µM
Cc1[nH]c(NC(=O)C(C)c2ccccc2)nc1-c1ccc(Cl)cc1 | 1b | luciferase |  | >10 µM
CNC(=O)c1c(-c2ccc(F)cc2)oc2cc(-c3cncs3)c(OC(C)C)cc12 |  | replicon |  | <1 µM
CCC[C@H](NC(=O)[C@@H]1[C@H]2CCC[C@H]2CN1C(=O)[C@@H](NC(=O)[C@@H](NC(=O)c1cnccn1)C1CCCCC1)C(C)(C)C)C(=O)C(=O)N[C@@H](C)Cc1ccc(C)cc1 |  | replicon |  | 0.47 µM
CC(NC(=O)c1ccc2c(c1)nc(-c1ccoc1)n2C1CCCCC1)C(=O)Nc1ccc(/C=C/C(=O)O)cc1 |  |  |  | 5–50 µM
CC(C)Cc1nc(N)nc2ccc(-c3ccc(F)cc3)nc12 |  | replicon |  | <0.3 µM
CNC(=O)c1c(-c2ccc(F)cc2)oc2cc(OC)c(OC)cc12 |  | replicon |  | <1 µM
CC(C)OC(=O)[C@H](C)N[P@](=O)(OC[C@H]1O[C@@H](c2ccc3c(N)ncnn23)[C@](C)(O)[C@@H]1O)OC(=O)C(C)C |  | luciferase / reporter gene |  | 0.22 µM
CNC(=O)c1c(-c2ccc(F)cc2)oc2cc(C=O)c(OC(C)C)cc12 |  | replicon |  | <30 µM
CCC[C@H](NC(=O)[C@@H]1C2CCCC2CN1C(=O)[C@@H](NC(=O)[C@@H](NC(=O)c1cnccn1)C1CCCCC1)C(C)(C)C)C(=O)C(=O)N[C@@H](C)C(C)C |  | replicon |  | 0.86 µM
Cc1nc(N)nc2ccc(-c3ccc(F)cc3)nc12 |  | replicon |  | <0.3 µM
CC(C)COC(=O)Nc1ncnn2c([C@@H]3O[C@H](CO)[C@@H](O)[C@@]3(C)O)ccc12 |  | luciferase / reporter gene |  | >100 µM
COc1ccc(-c2nc(NC(=O)[C@@H](C)c3ccc(Cl)cc3)[nH]c2C)cc1S(=O)(=O)CCO | 1b | luciferase |  | 0.027 µM
O=C(O)/C=C/c1ccc(NC(=O)C2(NC(=O)c3ccc4c(c3)nc(-c3ccoc3)n4C3CCCCC3)CCCC2)cc1 |  |  |  | ≤5 µM
Nc1ncnc2c1c(C#Cc1ccc(-c3ccccn3)nc1)cn2[C@H]1C[C@H](O)[C@@H](CO)O1 | 1b | replicon | genotype 1b | 1 µM
CNC(=O)c1c(-c2ccc(F)cc2)oc2cc(C(C)=O)c(OC)cc12 |  | replicon |  | <1 µM
COc1nc(N)nc2c1ncn2[C@@H]1O[C@H](COP(=O)(N[C@@H](CC(C)C)C(=O)OCC(C)(C)C)Oc2cccc3ccccc23)[C@@H](O)[C@@]1(C)O | 1b replicon | luciferase / replicon |  | 0.06 µM
C[C@@]1(O)[C@H](O)[C@@H](CO)O[C@H]1c1ccc2c(N)ncnn12 |  | luciferase / reporter gene |  | 1.6 µM
CCCc1nc(N)nc2ccc(-c3ccc(F)cc3)nc12 |  | replicon |  | <0.3 µM
CCCCCCCCCCCCCCCC(=O)Nc1ccn([C@H]2CC[C@@H](COP(=O)(O)O[C@H]3C[C@H](n4cc(F)c(=O)[nH]c4=O)O[C@@H]3CO)O2)c(=O)n1 | P114/ET (WILD TYPE) | replicon |  | 0.001 µM
CCOc1nc(N)nc2ccc(-c3cccc(NS(=O)(=O)c4ccc(NC(C)=O)s4)c3)nc12 |  | replicon |  | <0.3 µM
O=C(Cc1c[nH]c2ccccc12)N/N=C/c1ccccc1OS(=O)(=O)c1ccc(C(F)(F)F)cc1 |  | replicon |  | <5 µM
C[C@]1(O)[C@H](n2ccc(N)nc2=O)C[C@@](O)(C(F)(F)F)[C@H]1O |  | replicon |  | >50 µM
COC(=O)C(C)(C)NP(=O)(OC[C@H]1O[C@@H](c2cnc3c(=O)[nH]c(N)nn23)[C@](C)(O)[C@@H]1O)Oc1cccc2ccccc12 |  | luciferase / reporter gene |  | >50 µM
Cc1ccccc1CC(=O)N/N=C/c1ccccc1OS(=O)(=O)c1ccc(C(F)(F)F)cc1 |  | replicon |  | <5 µM
COC1=CC(=O)C[C@@H](C)[C@]12Oc1c(Cl)c(OC)cc(OC)c1C2=O | 1b |  |  | 6.13 µM
CNC(=O)c1c(-c2ccc(C)c(F)c2)oc2ccc(OC)cc12 |  | replicon |  | <10 µM
Nc1nc(C2CC2)c2nc(-c3ccc(N4CCCC4=O)cc3)ccc2n1 |  | replicon |  | <0.3 µM
O=C(N/N=C/c1ccccc1OS(=O)(=O)c1ccc(C(F)(F)F)cc1)c1ccccc1Cl |  | replicon |  | <5 µM
CNC(=O)c1c(-c2ccc(F)cc2)oc2cc(N3CCOCC3)c(OCc3cccc(C(=O)OC)c3)cc12 |  | replicon |  | <10 µM

A second listing of 3 rows from above:

COc1ccc(-c2nc(NC(=O)[C@H](C)c3ccc(Cl)cc3)[nH]c2C)cc1S(=O)(=O)CCO ; strain: 1b ; method: luciferase ; value: 0.83 µM
Nc1ncnc2c1c(-c1ccc(-c3cccc(-c4ccccn4)n3)cc1)cn2[C@H]1C[C@H](O)[C@@H](CO)O1 ; strain: 1b ; method: replicon ; conditions: genotype 1b ; value: 16 µM
O=C(NC1(C(=O)Nc2ccc3[nH]c(C(=O)O)cc3c2)CCCC1)c1ccc2c(c1)nc(-c1ccoc1)n2C1CCCCC1 ; value: 5–50 µM

Two numbers with a dash give a range or band. Neighbouring rows are from separate reports. An empty or dashed field is not shown.